Among the data in ChEMBL document CHEMBL4837229 (Eur J Med Chem, 2021) are IC50 values, retold here.

By UniProt entry, the sequences of proteins in these tests, tags left out. Residues count along the entry.
UniProt B4URF0, 1-453: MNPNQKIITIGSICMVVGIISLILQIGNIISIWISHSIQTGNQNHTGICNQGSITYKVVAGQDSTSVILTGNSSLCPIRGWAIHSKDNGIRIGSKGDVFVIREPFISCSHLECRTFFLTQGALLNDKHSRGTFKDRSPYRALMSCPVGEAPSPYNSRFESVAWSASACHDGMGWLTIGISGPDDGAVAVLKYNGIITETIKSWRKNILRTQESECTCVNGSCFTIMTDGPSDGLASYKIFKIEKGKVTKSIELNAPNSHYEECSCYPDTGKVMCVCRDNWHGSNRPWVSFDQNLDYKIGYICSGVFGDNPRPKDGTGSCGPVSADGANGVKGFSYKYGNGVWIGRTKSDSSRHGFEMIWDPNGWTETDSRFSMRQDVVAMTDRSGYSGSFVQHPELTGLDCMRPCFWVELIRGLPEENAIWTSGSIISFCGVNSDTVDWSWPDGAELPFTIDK

In this test the target is Neuraminidase (Influenza A virus, UniProt B4URF0).

In the case of `CCC(CC)O[C@@H]1C=C(C(=O)O)C[C@H](NC(=O)NNC)[C@H]1NC(C)=O`, 29.6 nM corresponded to half-maximal inhibition (IC50).
